According to patent publication US20100009970A1, “COMPOSITIONS AND METHODS FOR TREATMENT OF VIRAL DISEASES” (Combinatorx (Singapore) Pte. Ltd., priority 2008, published 2010):
Values joined by “and” are separate entries in the source; they are usually repeats but may differ in a detail not shown here. Equal values may be shown once.

The molecules below were run on Huh7 cells expressing a subgenomic RNA replicon of Con1 (genotype 1b) sequence origin. Settings: ratio CC50 / IC50.
CC(=O)N(C)c1ccc2c(c1)[C@@H](N(C)C)CC[C@H]2c1ccc(Cl)c(Cl)c1 was tested, and the Therapeutic index was 3.86.
With COC1CC[C@@H](c2ccc(Cl)c(Cl)c2)c2ccccc21 (single isomer, unassigned) [Methoxy 4S-Sertraline-P1] the Therapeutic index was greater than 2.2.
In the case of O=C1CC[C@@H](c2ccc(Cl)c(Cl)c2)c2ccccc21 [4S-Sertraline Ketone, (S)-4-(3,4-dichlorophenyl)-3,4-dihydronaphthalen-1(2H)-one], the Therapeutic index is reported as greater than 1.54.
For N[C@@H]1CC[C@H](c2ccc(Cl)c(Cl)c2)c2ccccc21 [(1R,4R)-Desmethyl Sertraline, (1R,4R)-4-(3,4-dichlorophenyl)-1,2,3,4-tetrahydronaphthalen-1-amine], the TI was 0.93.
In the case of CN[C@H]1CC[C@@H](c2ccc(Cl)c(Cl)c2)c2ccc(CS(C)(=O)=O)cc21 [(1S,4S)-4-(3,4-dichlorophenyl)-N-methyl-7-(methylsulfonylmethyl)-1,2,3,4-tetrahydronaphthalen-1-amine], the Therapeutic index is reported as 7.72.
Molecule N[C@H]1CC[C@@H](c2ccc(Cl)c(Cl)c2)c2ccccc21 [(1S,4S)-Desmethyl Sertraline, (1S,4S)-4-(3,4-dichlorophenyl)-1,2,3,4-tetrahydronaphthalen-1-amine] has a TI of 1.2 and a Therapeutic index of 1.2.
CN(C)[C@H]1CC[C@@H](c2ccc(Cl)c(Cl)c2)c2ccc(C(N)=O)cc21 [(5S,8S)-5-(3,4-dichlorophenyl)-8-(dimethylamino)-5,6,7,8-tetrahydronaphthalene-2-carboxamide] was tested, and the Therapeutic index was 8.29 and 6.99.
For CN[C@H]1CC[C@@H](c2ccc(Cl)c(Cl)c2)c2ccc(C(=O)NC3CC3)cc21 [(5S,8S)—N-cyclopropyl-5-(3,4-dichlorophenyl)-8-(methylamino)-5,6,7,8-tetrahydronaphthalene-2-carboxamide], the Therapeutic index was 3.22.
OC1CC[C@@H](c2ccc(Cl)c(Cl)c2)c2ccccc21 (stereo partly drawn) [Alcohol Sertraline-P1, (S)-4-(3,4-dichlorophenyl)-1,2,3,4-tetrahydronaphthalen-1-ol] showed a Therapeutic index greater than 2.04.
For CNS(=O)(=O)c1ccc(Oc2ccc(SC)c(C)c2)c(CN(C)C)c1 [Compound 6, 3-((dimethylamino)methyl)-N-methyl-4-(3-methyl-4-(methylthio)phenoxy)benzenesulfonamide], the TI was 7.8.
Molecule CSc1ccc(Oc2ccc(C#N)cc2CN(C)C)cc1C [Compound 7, 3-((dimethylamino)methyl)-4-(3-methyl-4-(methylthio)phenoxy)benzonitrile] has a TI greater than 7.8.
With CSc1ccc(Oc2ccccc2CN(C)C)cc1C [Compound 8, N,N-dimethyl-1-(2-(3-methyl-4-(methylthio)phenoxy)phenyl)methanamine] the TI was 2.95.
CSc1ccc(Oc2ccc(Br)cc2CN(C)C)cc1C [Compound 9, (5-bromo-2-(3-methyl-4-(methylthio)phenoxy)phenyl)-N,N-dimethylmethanamine] showed a TI of 3.44.
In the case of CSc1ccc(Oc2ccc(C(N)=O)cc2CN(C)C)cc1C [Compound 10, 3-((dimethylamino)methyl)-4-(3-methyl-4-(methylthio)phenoxy)benzamide], the TI is reported as greater than 1.86.
In the case of CSc1ccc(Oc2ccc(S(=O)(=O)NCc3ccccc3)cc2CN(C)C)cc1C [Compound 14, N-benzyl-3-((dimethylamino)methyl)-4-(3-methyl-4-(methylthio)phenoxy)benzenesulfonamide], the TI is reported as 1.48.
In the case of CNCc1ccccc1Oc1ccc(SC)c(C)c1 [Compound 30, N-methyl-1-(2-(3-methyl-4-(methylthio)phenoxy)phenyl)methanamine], the TI is reported as 2.
CNCc1cc(Br)ccc1Oc1ccc(SC)c(C)c1 [Compound 31, (5-bromo-2-(3-methyl-4-(methylthio)phenoxy)phenyl)-N-methylmethanamine] was tested, and the TI was 1.8.
CNCc1ccccc1Oc1ccc(Br)cc1 [Compound 32] showed a TI greater than 1.60.
CNCc1ccccc1Oc1ccc(SC)cc1 [Compound 33, N-methyl(2-(4-(methylthio)phenoxy)phenyl)methanamine] showed a TI greater than 1.65.
Molecule CNCc1cc(Br)ccc1Oc1ccc(SC)cc1 [Compound 34, (5-bromo-2-(4-(methylthio)phenoxy)phenyl)-N-methylmethanamine] has a TI of 1.44.
CNCc1cc(Br)ccc1Oc1cccc(OC)c1 [Compound 37, (5-bromo-2-(3-methoxyphenoxy)phenyl)-N-methylmethanamine] was tested, and the TI was 1.69.
Molecule CNCc1ccccc1Oc1ccc(C(F)(F)F)cc1 [Compound 39, N-methyl-1-(2-(4-(trifluoromethyl)phenoxy)phenyl)methanamine] has a TI greater than 1.3.
CSc1ccc(Oc2ccc(Br)cc2CN(C)C)cc1 [Compound 41, 1-(5-bromo-2-(4-(methylthio)phenoxy)phenyl)-N,N-dimethylmethanamine] gave a TI greater than 1.94.
With COc1ccc(Oc2ccc(Br)cc2CN(C)C)cc1 [Compound 42, (5-bromo-2-(4-methoxyphenoxy)phenyl)-N,N-dimethylmethanamine] the TI was greater than 1.63.
CNCc1cc(S(N)(=O)=O)ccc1Oc1ccc(SC)cc1 [Compound 43, 3-((methylamino)methyl)-4-(4-(methylthio)phenoxy)benzenesulfonamide] was tested, and the TI was greater than 1.53.
CSc1ccc(Oc2ccc(S(N)(=O)=O)cc2CN(C)C)cc1 [Compound 46, 3-((dimethylamino)methyl)-4-(4-(methylthio)phenoxy)benzenesulfonamide] gave a TI greater than 1.90 and a Therapeutic index greater than 1.90.
Molecule CSc1ccc(Oc2ccc(S(N)(=O)=O)cc2CO)cc1C [Compound 47, 3-(hydroxymethyl)-4-(3-methyl-4-(methylthio)phenoxy)benzenesulfonamide] has a TI greater than 2.76 and a Therapeutic index greater than 2.76.
CNCc1cc(S(N)(=O)=O)ccc1Oc1ccc(SC)c(C)c1 [Compound 48, 4-(3-methyl-4-(methylthio)phenoxy)-3-((methylamino)methyl)benzenesulfonamide] gave a TI of 16.98 and a Therapeutic index of 16.98.
CSc1ccc(Oc2ccc(S(=O)(=O)Nc3ccccc3)cc2CN(C)C)cc1C [Compound 49, 3-((dimethylamino)methyl)-4-(3-methyl-4-(methylthio)phenoxy)-N-phenylbenzenesulfonamide] gave a TI of 1.65.
Molecule CNCc1cc([N+](=O)[O-])ccc1Oc1ccc(SC)c(C)c1 [Compound 50, N-methyl-1-(2-(3-methyl-4-(methylthio)phenoxy)-5-nitrophenyl)methanamine] has a TI of 4.32.
CSc1ccc(Oc2ccc(N)cc2CN(C)C)cc1C [Compound 53, 3-((dimethylamino)methyl)-4-(3-methyl-4-(methylthio)phenoxy)aniline] was tested, and the TI was greater than 2.21.
CSc1ccc(Oc2ccc([N+](=O)[O-])cc2CN(C)C)cc1C [Compound 54, N,N-dimethyl-1-(2-(3-methyl-4-(methylthio)phenoxy)-5-nitrophenyl)methanamine] was tested, and the TI was greater than 8.1.
Molecule CN(C)Cc1ccccc1Oc1ccc(Br)cc1 [Compound 55, (2-(4-bromophenoxy)phenyl)-N,N-dimethylmethanamine] has a TI greater than 1.67.
Molecule CN(C)[C@H]1CC[C@@H](c2ccc(Cl)c(Cl)c2)c2ccc(NS(C)(=O)=O)cc21 [Dimethyl Sertraline Reverse Sulfonamide, N-((5S,8S)-5-(3,4-dichlorophenyl)-8-(dimethylamino)-5,6,7,8-tetrahydronaphthalen-2-yl)methanesulfonamide] has a TI of 4.77 and a Therapeutic index of 4.77.
